The entries are a selection whose mix differs from that of the whole data set. Activity calls are given as the source filed them. Calls follow the shape of the dose curve; as a rule, active = well fitted inhibition curve with a large enough effect in the main read-out, with a control signal flat (not every such curve was filed as active); inconclusive = small, poorly fitted or top-dose-only effect, or effect the other way, or a change in a side signal; inactive = no such curve, though single readings can be large or run the other way.

Amino acid sequences for entries named in this document (tags omitted). A change or cut given only in a name is not applied to a line headed by its entry.
UniProt Q99816: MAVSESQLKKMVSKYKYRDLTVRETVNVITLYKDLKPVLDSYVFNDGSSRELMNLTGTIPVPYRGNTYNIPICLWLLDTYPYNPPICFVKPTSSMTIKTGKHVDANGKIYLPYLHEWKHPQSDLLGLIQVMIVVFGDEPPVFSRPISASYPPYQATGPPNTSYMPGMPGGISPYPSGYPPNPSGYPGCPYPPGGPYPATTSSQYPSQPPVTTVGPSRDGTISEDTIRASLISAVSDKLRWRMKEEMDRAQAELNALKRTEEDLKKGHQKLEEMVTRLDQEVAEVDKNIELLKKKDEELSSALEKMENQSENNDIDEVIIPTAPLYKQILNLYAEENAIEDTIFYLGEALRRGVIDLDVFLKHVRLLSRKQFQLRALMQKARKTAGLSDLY

The target in this experiment is Tumor susceptibility gene 101 protein (Homo sapiens) (UniProt Q99816). The experiment in a line: qHTS Assay for Iinhibitors of HIV-1 Budding by Blocking the Interaction of PTAP/TSG101. Also: % of control where 0% means no effect. The note with it: Fluorescence polarization, FITC-PTAP peptide / Tsg101 binding; at 115 µM (top of the series). The source says: NIH Molecular Libraries Probe Production Network [MLPCN] NIH Chemical Genomics Center [NCGC] MLPCN Grant: 1 R03 MH087464-01A1 PI Name: Dr. Eric Freed, NCI NCGC Assay Overview: Stages of the HIV-1 replication cycle, specifically virus assembly and release, provide underexploited targets for the development of novel antiviral inhibitors. The late stages of HIV-1 replication are mediated by the Gag precursor protein, Pr55Gag. Expression of Pr55Gag is both necessary and sufficient for the production of virus-like particles from Gag-expressing cells. The Gag protein hijacks key host proteins involved in endocytic machinery of the host cell to promote endosomal processing and viral budding. The budding process requires a direct interaction between a […] (PTAP) motif in the p6 domain of Gag and the cellular endosomal sorting protein known as Tsg101. In this way, the Gag PTAP motif promotes the host cells to recruit viral particles to the plasma membrane where the new viral particles are released, effectively turning the host cells into viral factories. A fluorescence anisotropy assay has been developed to quantitatively measure the PTAP-Tsg101 interaction which can be used to screen for inhibitors of this interaction.
NCGC Assay Protocol Summary: Two uL of the Tsg101 binding domain in buffer (10 mM HEPES pH 7.5; 0.15 M NaCl, 0.01% Tween 20; 3 mM EDTA;0.1 mM TCEP) was dispensed into Greiner black MB 1536-well plates (final concentration 10 uM). Then, 23 nL of compounds or DMSO were delivered to each well using a pin tool. Finally, 2 uL of a FITC-labeled peptide containing the PTAP motif (1) in the same buffer was dispensed (50 nM final concentration) and the binding was allowed to proceed for 20 min. at r.t. Fluorescent polarization was determined using FITC excitation and polarized emission filters on a Perkin Elmer Viewlux. Keywords: Tsg101, PTAP, Gag, HIV, fluorescent polarization, MLSMR, MLPCN, NIH Roadmap, qHTS, NCGC
A general note: qHTS replaces the single test concentration by a dilution series.
Turning to `CCN(N=Nc1nonc1N)c1nonc1N`, the activity change, negative = inhibition is inactive: -0.137%.
In the case of `Nc1cccc2ccc([As](=O)(O)O)cc12` it was inactive: 70.1%; in that of `Cc1ccc(NP(=O)(Oc2ccccc2F)Oc2ccccc2F)nc1`, inactive: -5.05%; in that of `CN(C(=O)Cc1ccc(Cl)c(Cl)c1)[C@H]1CCCC[C@@H]1N1CCCC1`, inactive: -1%.
In the case of `Cc1cc(SC(NC(=O)c2ccc(F)cc2)C(Cl)(Cl)Cl)ncn1` (centres undefined) it was inactive: -0.332%; in that of `CCOP(=O)(Nc1ccccc1)OCC`, inactive: -2.26%.
For the compound `CCCC1OP(N)(=O)OCC1CC` (centres undefined), the activity change, negative = inhibition is inactive: -5.06%.
With `CC(=O)Nc1ccc([As](=O)(O)O)cc1`, the activity change, negative = inhibition was inactive: 4.19%.
Take `O=C(O)c1ccccc1[As](=O)(O)O`: the activity change, negative = inhibition was inactive: -0.605%.
In the case of `O=P(Nc1nc2ccc(Cl)cc2s1)(c1ccccc1)c1ccccc1`, the activity change, negative = inhibition is inactive: -2.71%.
For `Nc1cc(N)c2nonc2c1[N+](=O)[O-]`, the activity change, negative = inhibition is inactive: -1.71%.
In the case of `CC(C)CC(=O)NC(Sc1ccc(Cl)cc1)C(Cl)(Cl)Cl` (centres undefined) it was inactive: -4.91%.
As to `O=C(NC(Sc1ccncn1)C(Cl)(Cl)Cl)c1ccccc1` (centres undefined), the activity change, negative = inhibition is inactive: -0.624%.
The figure for `Oc1ccccc1CNc1ccccn1` is inactive: -4.91%; for `Cc1ccc(OP(=O)(Nc2nccs2)Oc2ccc(C)cc2)cc1` it is inactive: -0.518%; for `COc1ccccc1OP(=O)(Nc1ccc(C)cn1)Oc1ccccc1OC` it is inactive: 5.82%.
For the compound `CN1CCCC(OC(=O)C(c2ccccc2)c2ccccc2)C1` (centres undefined), the activity change, negative = inhibition is inactive: -3.97%.
The figure for `Clc1ccc(Cl)c(NC2=NCC(CBr)S2)c1` (centres undefined) is inactive: -0.157%; for `NC(=O)c1cc([N+](=O)[O-])cc([N+](=O)[O-])c1N` it is inactive: -11.4%; for `Cc1ccc(N/C(=N/P(=O)(N2CCOCC2)N2CCOCC2)N2CCOCC2)cc1` it is inactive: 0.436%.
For `CN(C(=O)Cc1ccc(Cl)c(Cl)c1)[C@H]1CCCC[C@H]1N1CCCC1`, the activity change, negative = inhibition is inactive: 1%.
On to `CN(C)C(=O)OCCc1n(C)cc[n+]1C`, for which the activity change, negative = inhibition was inactive: -3.26%.
The figure for `CC(C)=N/N=C(\N)N[N+](=O)[O-]` is inactive: -3.4%; for `CC1CCN(C(=O)Oc2c(Cl)cc(Cl)c3cccnc23)CC1` it is inactive: -1.61%.
The figure for `C[N+]1=C2C=CC=CC=C2SC12C([N+](=O)[O-])=CC([N+](=O)[O-])=C[C-]2[N+](=O)[O-]` (centres undefined) is inactive: -3.12%.
Take `Nc1ccc([As](=O)(O)c2ccc(N)cc2)cc1`: the activity change, negative = inhibition was inactive: -3.6%.
In the case of `CCN(/C(=N/P(=O)(N1CCOCC1)N1CCOCC1)N1CCOCC1)c1ccc(OC)cc1` it was inactive: -2.45%.
With `O=[N+]([O-])c1cccc2n[nH]nc12`, the activity change, negative = inhibition is inactive: -1.83%.
With `CC(=O)N1C2C3N(C(C)=O)C1C1N(C(C)=O)C(C(N1C(C)=O)N3C(C)=O)N2C(C)=O`, the activity change, negative = inhibition was inactive: -2.62%.

Source of the values: PubChem BioAssay AID493005 (National Center for Advancing Translational Sciences (NCATS), 2010).
